Anti-infective test results gathered from many reports (values: NIAID ChemDB through PubChem).

All rows: whole-cell or culture tests; agent: Respiratory syncytial virus; read by: cytopathic effect; read-out: EC50

Lines come from different laboratories, so protocols vary. Blank or dashed fields: not listed here. ECn: concentration that inhibits the pathogen or its effect by n%.

C=C(N=CC)c1nc(-c2ccc(OC)cc2)n([C@@H]2O[C@H](CO)[C@@H](O)[C@H]2O)n1 ; strain: LONG ; cell line: HeLa ; value: 100 µg/mL
O=C(/C=C/c1ccc(O)c(O)c1)O[C@@H]1CC(O)(C(=O)O)C[C@@H](OC(=O)/C=C/c2ccc(O)c(O)c2)C1O ; strain: Washington (type B) ; cell line: HEP-2 ; value: 0.167 µg/mL
c1ccc(Oc2ccc3c(c2)CSSC3)cc1 ; strain: LONG ; cell line: HeLa ; value: >36 µM
CC(C)CS[C@@H]1C=C[C@H](n2cnc3c(N)ncnc32)C1 ; cell line: HeLa ; value: >3.2 µg/mL
CCOC(=O)COCCN1CCC(Nc2nc3c(C)cccc3n2Cc2nc(C)ccc2O)CC1 ; cell line: HeLa ; value: 1.585 µM
NC(=O)CCN(CCC(N)=O)S(=O)(=O)c1cccc(Nc2nc(Nc3cccc(S(=O)(=O)N(CCC(N)=O)CCC(N)=O)c3)nc(Nc3ccc(-c4ccc(Nc5nc(Nc6cccc(S(=O)(=O)N(CCC(N)=O)CCC(N)=O)c6)nc(Nc6cccc(S(=O)(=O)N(CCC(N)=O)CCC(N)=O)c6)n5)cc4S(=O)(=O)O)c(S(=O)(=O)O)c3)n2)c1 ; strain: A2 ; cell line: HEP-2 ; value: 0.25 µg/mL
CC=NC(=N)c1nc(-c2cccc(C)c2)n(COCCO)n1 ; strain: LONG ; cell line: HeLa ; value: >100 µg/mL
CCOC(=O)CN1CCC(Nc2nc3c(C)cccc3n2Cc2nc(C)ccc2O)CC1 ; cell line: HeLa ; value: 1.995 µM
C=C(N=CC)c1nc(-c2cccc(OC)c2)n(C2O[C@H](CO)[C@@H](O)[C@H](O)[C@H]2O)n1 ; strain: LONG ; cell line: HeLa ; value: 100 µg/mL
Cc1ccc(O)c(Cn2c(NCC(O)CO)nc3ccccc32)n1 ; cell line: HeLa ; value: 0.501 µM
c1ccc2c(c1)CSSC2 ; strain: FM58-8 (A) clinical isolate ; cell line: HeLa ; value: 7.1 µM
Cc1cc(C)c2nc(Nc3ccc(N)cc3)n(Cc3nc(C)ccc3O)c2c1 ; cell line: HeLa ; value: 100 µM
Cc1ccc(O)c(Cn2c(NC3CCN(CC(O)CO)CC3)nc3c(C)cccc32)n1 ; cell line: HeLa ; value: 0.013 µM
CC=NC(=N)c1nc(-c2cccc(C)c2)n(Cc2ccccc2)n1 ; strain: LONG ; cell line: HeLa ; value: >20 µg/mL
Cc1ccc(O)c(Cn2c(NCCCN3CCCCC3)nc3ccccc32)n1 ; cell line: HeLa ; value: 0.316 µM
CNS(=O)(=O)CCCN1CCC(Nc2nc3c(C)cc(C)cc3n2Cc2nc(C)ccc2O)CC1 ; cell line: HeLa ; value: 0.016 µM
Fc1ccc2c(c1)CSSC2 ; strain: LONG ; cell line: HeLa ; value: 223.3 µM
COC(=O)COCCN1CCC(Nc2nc3c(C)cccc3n2Cc2nc(C)ccc2O)CC1 ; cell line: HeLa ; value: 1.259 µM
Cc1cc(C)c2nc(NCCC3CCCN3C)n(Cc3nc(C)ccc3O)c2c1 ; cell line: HeLa ; value: 0.04 µM
O=[N+]([O-])c1ccc2c(c1)CSSC2 ; strain: LONG ; cell line: HeLa ; value: 11.4 µM
CC=NC(=N)c1nc(-c2ccc(OC)cc2)n(Cc2ccccc2)n1 ; strain: LONG ; cell line: HeLa ; value: >100 µg/mL
Cc1ccc(O)c(Cn2c(NC3CCN(CC4(O)CCCCC4)CC3)nc3c(C)cccc32)n1 ; cell line: HeLa ; value: 1.995 µM
Cc1ccc(O)c(Cn2c(NCCCCCCO)nc3ccccc32)n1 ; cell line: HeLa ; value: 10 µM
C=C(N=CC)c1nc(-c2cccc(C)c2)n(C2O[C@H](CO)[C@@H](O)[C@H](O)[C@H]2O)n1 ; strain: LONG ; cell line: HeLa ; value: 100 µg/mL

Repeating the final 2 entries:

smiles,strain,cell line,value
Cc1ccc(O)c(Cn2c(NCCCCCCO)nc3ccccc32)n1,,HeLa,10 µM
C=C(N=CC)c1nc(-c2cccc(C)c2)n(C2O[C@H](CO)[C@@H](O)[C@H](O)[C@H]2O)n1,LONG,HeLa,100 µg/mL